The nature of this data set: general procedure: Fmoc solid-phase peptide synthesis in flow; solid support providing C-terminus amide, substitution 0.50 mmol/g. The settings on record: whole synthesis, scale 0.2 mmol.

The substance Ac-CF AYI ARPLPRAHIKEYF Y -nh2 showed a crude mass of 0.204 g and an isolated mass of 0.038 g. Further, the crude yield (based on the resin substitution degree) stood at 42%.

The values are drawn from patent publication US20060165650 (published 2006).
